Values quoted from earlier work in publication PMC6882899 (Scientific Reports, 2019).

Tested on: fish
Conditions: cited from earlier work

CC[C@H](C)[C@@H]1NC(=O)[C@H](CC(C)C)NC(=O)[C@@H]2CSSC[C@@H](C(N)=O)NC(=O)[C@H](Cc3ccccc3)NC(=O)[C@H](CCCCN)NC(=O)[C@H](CCCCN)NC(=O)[C@H](Cc3c[nH]cn3)NC(=O)[C@H](CC(N)=O)NC(=O)[C@H](CCCNC(=N)N)NC(=O)[C@H](CCCNC(=N)N)NC(=O)[C@H](CSSC[C@H](NC(=O)[C@H](CCCNC(=N)N)NC(=O)[C@H](Cc3c[nH]c4ccccc34)NC(=O)[C@H](CC(N)=O)NC(=O)[C@@H](N)Cc3ccccc3)C(=O)N2)NC(=O)[C@H](C)NC(=O)[C@@H]2CCCN2C1=O
effect of injection into fish, in words: non-lethal
